We go through 21 compounds from PubChem BioAssay AID624416 (The Scripps Research Institute Molecular Screening Center, 2012).

This is a selection; strong and weak results do not stand in their true shares. The source made the active and inactive calls. No stated cut-off is given here; in the data, active means inhibition above about 8.5%; inactive means the rest.

The subject of the assay is HIV-1 gp120 / PG9 antibody interaction. Description: binders of HIV-1 gp120 antibody PG9, primary screen, biochemical, TR-FRET (AID 624416). The settings on record: TR-FRET gp120-PG9 antibody binding; at 6.7 µM; stronger effect = higher value.
For `CC(C)(C)OC(=O)N1CCC(N(C(=O)c2ccccc2)c2ccc(Cl)cc2)CC1`, the inhibition is inactive: -2.59%.
In the case of `N#Cc1ccc(C(=O)NCC2(N3CCCCC3)CCCCC2)cc1` it was inactive: 1.38%.
Regarding `CC(C)(C)n1nnnc1C(c1cccc2ccccc12)N1CCC(n2c(=O)[nH]c3ccccc32)CC1` (stereo unspecified), the inhibition was inactive: 0.18%.
In the case of `Cc1cc(N(CCCl)CCCl)ccc1C=O` it was inactive: 0.24%; in that of `O=c1[nH]c2ccccc2n1C1CCN(C(c2ccccc2)c2nnnn2C2CCCC2)CC1` (stereo unspecified), inactive: -1.4%; in that of `CCCN1CCC(Nc2cc(OC)cc(OC)c2)CC1`, inactive: -1.79%.
`c1ccc(CN2CCC(Nc3ccccc3)CC2)cc1`: the inhibition is inactive: 0.61%.
The value for `C/C(N)=N\P(=O)(Oc1ccccc1)Oc1ccccc1` was inactive: 0.04%; that for `CN(C)C1(CNC(=O)c2cccc(C#N)c2)CCCCC1` was inactive: -1.63%.
In the case of `O=c1[nH]c2ccccc2n1C1CCN(C(c2ccnc3ccccc23)c2nnnn2C2CCCC2)CC1` (stereo unspecified) it was inactive: 1.24%; in that of `COc1ccc(C(=O)NCC2(N3CCOCC3)CCCCC2)cc1OC`, inactive: 1.21%.
In the case of `O=c1[nH]c2ccccc2n1C1CCN(C(c2cccs2)c2nnnn2C2CCCCC2)CC1` (stereo unspecified) it was inactive: 1.04%; in that of `O=C(NCC1(N2CCOCC2)CCCCC1)c1cc(Br)ccc1Cl`, inactive: 1.32%.
With `COc1cc(C(=O)NCC2(N3CCOCC3)CCCCC2)cc(OC)c1C`, the inhibition is inactive: -0.66%.
`CCCCn1nnnc1C(c1ccccc1)N1CCC(n2c(=O)[nH]c3ccccc32)CC1` (stereo unspecified): the inhibition was inactive: -0.21%.
In the case of `CCCCn1nnnc1C(c1cccc(OC)c1OC)N1CCC(n2c(=O)[nH]c3ccccc32)CC1` (stereo unspecified), the inhibition is inactive: 0.37%.
`O=c1[nH]c2ccccc2n1C1CCN(C(c2cccs2)c2nnnn2C2CCCC2)CC1` (stereo unspecified): the inhibition was inactive: -0.55%.
On to `O=C(OC1CN2CCC1CC2)C1c2ccccc2C=Cc2ccccc21` (stereo unspecified), for which the inhibition was inactive: 1.09%.
The value for `N/C(=N\O)c1c(N)no[n+]1[O-]` was inactive: 1.67%.
In the case of `COc1cccc(C(c2nnnn2C(C)(C)C)N2CCC(n3c(=O)[nH]c4ccccc43)CC2)c1OC` (stereo unspecified) it was inactive: 0.54%; in that of `CCOC(=O)N1CCC(Nc2ccc(C)cc2)CC1`, inactive: 0.08%.
